Anti-infective test results gathered from many reports (values: NIAID ChemDB through PubChem).

Common to all: tests in culture

ECn: concentration that inhibits the pathogen or its effect by n%.

smiles | agent | strain | mutations | cell line | method | endpoint | dose | result
Cc1cc(C#N)cc(C(=O)c2cc(Cl)ccc2OCC(=O)Nc2ccc(S(N)(=O)=O)cc2C)c1 | HIV-1 | HXB2 | RT-P236L | HeLa + HELA CD4+ | β-galactosidase | fold resistance | - | ~1
CC(=O)N1C(=O)[C@@H](Cc2ccccc2)NC1=S | HIV-2 | - | - | MT-4 | cytopathic effect / XTT | inhibition | 1 µg/mL | 16%
COc1ccc(S(=O)(=O)N(CC(C)C)C[C@@H](O)CCN(CC2CCCC2)S(=O)(=O)Cc2csc(C(C)C)n2)cc1 | HIV-1 | IIIB | - | CEM | p24 | EC90 | - | 1 µM
O=C1Nc2ccc(Cl)cc2[C@@](/C=C/C2CC2)(C(F)(F)F)N1 | HIV-1 | - | RT-Y188C | - | - | EC90 | - | <0.012 µM
O=C1[C@@H](Cc2ccccc2)NC(=S)N1c1ccccc1 | HIV-2 | - | - | MT-4 | RT activity | inhibition | 0.1 µg/mL | 42%
COc1ccc(S(=O)(=O)N(CC2CCCC2)C[C@@H](O)CN(CCc2ccccc2)C(=O)O[C@H]2CCOC2)cc1 | HIV-1 | IIIB | - | CEM | p24 | EC90 | - | 0.1 µM
O=C(NCCc1ccccc1)Nc1nc2c(Cl)cccc2s1 | HIV-2 | - | - | MT-4 | RT activity | inhibition | 0.1 µg/mL | 1%
CC(C)CN(C(=O)C(=O)C(=O)C(Cc1ccccc1)NC(=O)O[C@H]1CCOC1)S(=O)(=O)c1ccccc1 | HIV-1 | IIIB | - | CEM | p24 | EC90 | - | 1 µM
Cc1cc(S(N)(=O)=O)ccc1NC(=O)COc1ccc(Cl)cc1C(=O)c1cc(Cl)cc(C#N)c1 | HIV-1 | HXB2 | RT-V108I Y181C | HeLa + HELA CD4+ | β-galactosidase | fold resistance | - | ~1
O=C1Nc2ccc(F)c(F)c2[C@@](/C=C/C2CC2)(C(F)(F)F)N1 | HIV-1 | - | RT-K101E | - | - | fold resistance | - | <6.32
COc1ccc(S(=O)(=O)N(CC2CCCC2)C[C@@H](O)CN(CCc2ccc(O)cc2)C(=O)O[C@H]2CCOC2)cc1 | HIV-1 | IIIB | - | CEM | p24 | EC90 | - | 0.1 µM
N#Cc1csc(NC(=O)NCCc2ccccc2)n1 | HIV-2 | - | - | MT-4 | RT activity | inhibition | 0.1 µg/mL | 67%
COc1ccc(S(=O)(=O)N(CC(C)C)C[C@@H](O)CCN(CC2CCCC2)S(=O)(=O)CC2CCS(=O)(=O)CC2)cc1 | HIV-1 | IIIB | - | CEM | p24 | EC90 | - | 1 µM
Cc1cc2[nH]cnc2cc1NC(=O)COc1ccc(Cl)cc1C(=O)c1cc(F)cc(C(F)(F)F)c1 | HIV-1 | HXB2 | RT-K101E | HeLa + HELA CD4+ | β-galactosidase | fold resistance | - | ~1
CCCCN1C(=O)[C@@H](Cc2ccccc2)NC1=S | HIV-2 | - | - | MT-4 | RT activity | inhibition | 10 µg/mL | 1%
Cc1ccc(C)n1-c1ccc(C(=O)O)c(O)c1 | HIV-1 | SF162 R5 CLADE B | - | PBMC/5.25M7 | luciferase / cell fusion | EC90 | - | 69.65 µM
O=C(NCCc1ccccc1)Nc1nc2ccccc2s1 | HIV-2 | - | - | MT-4 | RT activity | inhibition | 100 µg/mL | 96%
Nc1ccc(S(=O)(=O)N(Cc2ccccc2)CC(F)(F)C(=O)[C@@H](Cc2ccccc2)NC(=O)O[C@H]2CCOC2)cc1 | HIV-1 | IIIB | - | CEM | p24 | EC90 | - | 1 µM
Cc1cc(S(N)(=O)=O)ccc1NC(=O)COc1ccc(Cl)cc1C(=O)c1cc(F)cc(C(F)(F)F)c1 | HIV-1 | HXB2 | RT-P236L | HeLa + HELA CD4+ | β-galactosidase | fold resistance | - | ~1

Repeating the first 2 entries:

{"smiles": "Cc1cc(C#N)cc(C(=O)c2cc(Cl)ccc2OCC(=O)Nc2ccc(S(N)(=O)=O)cc2C)c1", "agent": "HIV-1", "strain": "HXB2", "mutations": "RT-P236L", "cell line": "HeLa + HELA CD4+", "method": "β-galactosidase", "endpoint": "fold resistance", "result": "~1"}
{"smiles": "CC(=O)N1C(=O)[C@@H](Cc2ccccc2)NC1=S", "agent": "HIV-2", "cell line": "MT-4", "method": "cytopathic effect / XTT", "endpoint": "inhibition", "dose": "1 µg/mL", "result": "16%"}

Blank or dashed fields: not listed here. Inhibition is in % at the dose shown (toxicity tests: loss of growth or viability). Conditions beyond the fields shown may differ between rows. Fold resistance: result on the changed form divided by that on wild type.